PubChem BioAssay AID624099 – ICCB-Longwood – 2012

Purpose: 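Knock-downs relieving repression by E2 of an HPV18 LCR luciferase reporter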 (primary screen)
Cells: human C33A cervical carcinoma cells (HPV-negative) stably expressing BPV1 E2 and an HPV18 LCR luciferase reporter
Reagents: siRNA pool against human genes, 40 nM
Time to read-out: 72 h
Measurement: 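HPV18 LCR reporter light per well, converted to plate-wise z-scores that exclude control wells, and averaged over triplicate plates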
Scale: mean z-score and z-score: higher = stronger reporter signal, weaker E2 silencing
Rule for the call: 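Mean z ≥ 2 together with z ≥ 2 in two or more of the three replicates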
The whole screen tested about 21,000 reagents; this is an unselected part. 497 of them (2.4%) count as active. 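Higher z means weaker E2 silencing; only reporter increases were scored, and knock-downs that hurt cell survival may mask genuine repressor factors.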 A number with no mark means an inactive call.

gene	mean z-score	z-score, replicate A	z-score, replicate B	z-score, replicate C
GLG1	-1.45	-1.56	-1.34	-1.47
CLDN10	1.98	1.97	1.87	2.08
FOXE3	0	0.07	-0.09	0.01
FBXO34	0.26	0.15	0.46	0.17
LOC401128 (retired record)	0.18	-0.3	0.73	0.12
SRC	-0.69	-0.52	-0.78	-0.78
TMEM174	0.67	0.78	0.62	0.62
SH3GL3	1.38	1.51	1.74	0.88
LOC400651 (retired record)	-0.4	-0.26	-0.47	-0.47
GSTCD	0.12	-0.96	1.7	-0.38
PHF14	0.68	0.19	0.35	1.5
HMGB2	-0.34	-0.26	-0.42	-0.34
DUSP2	0.86	1.09	0.79	0.68
LINC00477	-0.87	-0.93	-0.85	-0.85
BTF3P10	0.05	0.37	0.04	-0.27
EPSTI1	1.27	0.55	1.6	1.64
TNNI1	0.11	-0.01	0.35	0
EEFSEC	2.13 (active)	2.33	2	2.05
PLIN2	-1.21	-1.41	-1.26	-0.98
LINC01565	-0.75	-1.04	-0.61	-0.59
BOD1L1	-0.45	-0.07	-0.83	-0.44
RPL24	-2.51	-2.2	-2.77	-2.58
GDI2	2.05 (active)	2.01	2.06	2.07
TPRG1	-0.07	-0.18	-0.12	0.1
WNK2	-1.55	-1.82	-1.65	-1.18
BUB1B	0.43	0.78	0.29	0.22
ACSM2A	2.59 (active)	2.42	2.72	2.64
ZNF740	-1.08	-1.02	-1.17	-1.04
IQUB	1.53	1.14	2.1	1.34
PRKN	0.44	0.51	0.36	0.46
SLC39A9	0.49	0.37	0.44	0.65
CD22	1.49	1.47	1.51	1.51
FLJ31132 (retired record)	0.57	0.14	0.64	0.93
SAMD4A	0.58	0.76	0.53	0.44
MPP4	0.72	0.17	0.81	1.16
ZNF75A	0.51	0.46	0.67	0.39
PANK1	1.25	1.54	1.14	1.06
CARMIL2	-0.08	-0.24	-0.42	0.43
CCHCR1	0.93	1.26	0.69	0.83

No new results follow: 5 of the entries above.
gene	mean z-score	z-score, replicate A	z-score, replicate B	z-score, replicate C
GSTCD	0.12	-0.96	1.7	-0.38
PHF14	0.68	0.19	0.35	1.5
HMGB2	-0.34	-0.26	-0.42	-0.34
DUSP2	0.86	1.09	0.79	0.68
LINC00477	-0.87	-0.93	-0.85	-0.85
